Experimental data as given in paper PMC6212833 (mBio, 2018).

How the values were obtained:
[1] = system: B. mandrillaris trophozoites; test: Nitroxoline structure-activity relationship dose response (CellTiter Glo); assay type: cell-based, Balamuthia mandrillaris; details: 72 h, sigmoidal curve fit
[2] = system: B. mandrillaris trophozoites; assay type: cell-based, Balamuthia mandrillaris

## 6-Nitroquinolone [compound 15]
[1]
  Hill slope: 1.41

## Demecarium Bromide
[2]; 20 µM, 72 h
  B-score: 11.79

## Plicamycin
[2]
  B-score: 8.18

Like-named read-outs stand apart in the source and are kept apart here.
